# Experimental data taken from US5441936A (priority 1993, dated 1995).
# Assay: general procedure: Boc solid-phase peptide synthesis; MBHA; dicyclohexylcarbodiimide
# Conditions: whole synthesis, 215 nm
substance,measurement,value
Ac-RRWWCRC-NH2 (cysteine pairing not given here),final HPLC purity,greater than 90% pure
